# Percent effect of library compounds

The values are deposited in ChEMBL (CHEMBL3988442, “University of Dundee, Small-Polar-MMV Screening Library” (2021)).

Values are the deposited “Percent Effect”, in %. The controls that fix the scale are not given in the record; negative values are as filed. Many other results are left out here, so strong results are more common than in the screen. A dash means the value is not listed here; it may have been measured.

Mtb glucose medium: 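Whole-cell growth test on Mycobacterium tuberculosis, read after 3 days in glucose-containing 7H9 medium; the read-out is not stated. Concentration: 500 µM. Higher reads as more growth inhibition (inferred: compounds with an IC50 in retests scored well above the rest). Size under these conditions: about 18,000 compounds, about 1,400 of them at 50% or above in at least one test.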
Mtb cholesterol medium: 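Growth of Mycobacterium tuberculosis over 4 days (cholesterol / DPPC medium with tyloxapol); the read-out is not stated. Tested at 500 µM. The record gives no direction; compounds that gave an IC50 in retests scored well above the rest, so higher reads as more growth inhibition. Size under these conditions: about 18,000 compounds, about 900 of them at 50% or above in at least one test.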

| # | SMILES | Mtb glucose medium | Mtb cholesterol medium |
|---|---|---|---|
| 1 | `CC1CNCCN1C1CCN(C)CC1` (centres undefined) | - | -8.893 |
| 2 | `NC1CCOc2ccc(F)cc21` (centres undefined) | 25.67 | - |
| 3 | `COc1cccc(OC(F)(F)F)c1CN` | 26.67 | - |
| 4 | `CCSc1cncc(N2CCC(O)CC2)n1` | 34.7 | - |
| 5 | `Cn1cc(CNS(=O)(=O)Cc2ccccc2)cn1` | 12.58 | - |
| 6 | `O=C(c1coc(CN2CCOCC2)c1)N1CCSCC1` | - | 9.385 |
| 7 | `CC(=O)NC(C)C(=O)Nc1ccc2c(c1)CCC2` (centres undefined) | 8.01 | - |
| 8 | `COCC(=O)N(C)C1CCc2ccccc21` (centres undefined) | 35.56 | - |
| 9 | `CNC(=O)c1ccc(S(=O)(=O)N2CCC=C(F)C2)cc1` | - | 13.22 |
| 10 | `NC(=O)COCCNC(=O)CC1CCCCC1` | -2.442 | - |
| 11 | `COc1ccc(C(N)CCO)cc1` (centres undefined) | - | -8.046 |
| 12 | `CC(=O)NC(CC(=O)Nc1ccccn1)c1cccs1` (centres undefined) | 3.223 | - |
| 13 | `O=C(CC1CCc2ccccc21)NCc1ccncc1` (centres undefined) | 42.83 | - |
| 14 | `CC(C)N1CCC(NC(=O)Nc2ccccn2)C1` (centres undefined) | 2.792 | - |
| 15 | `CNC(=O)CN1CCC(OCCCc2ccccc2)C1` (centres undefined) | 60.02 | 44.61 |
| 16 | `CN(C)CCNC(=O)c1ccc(Cl)cc1` | 51.05 | - |
| 17 | `COC(=O)c1ccc2oc(=O)[nH]c2c1` | - | 9.084 |
| 18 | `CCNS(=O)(=O)C1CCN(Cc2ccn(C)c2)C1` (centres undefined) | - | 0.3675 |
| 19 | `CN(Cc1ccncc1)S(=O)(=O)c1cccs1` | 53.77 | 33.87 |
| 20 | `CN(C)C(=O)c1cc(-c2ccncc2)on1` | 1.336 | -5.083 |
| 21 | `NCC1CCSCC1` | - | -0.8178 |
| 22 | `Cc1ccc(C2CC(=O)NC(SCC(N)=O)=C2C#N)o1` (centres undefined) | - | 29 |
| 23 | `CCN1CCN(Cc2cc(C(C)=O)ccc2OC)CC1` | 56.03 | - |
| 24 | `CSCCC(NC(N)=O)C(=O)Nc1cccc(F)c1` (centres undefined) | 4.862 | -4.457 |
| 25 | `O=C(NC1CC1)c1snnc1-c1ccccc1` | 29.86 | - |
| 26 | `NC(c1ccccc1)C1CCOCC1` (centres undefined) | - | 7.139 |
| 27 | `NCCNS(=O)(=O)c1ccc(Br)c(F)c1` | 41.57 | - |
| 28 | `CCN(CC)C(CNC1=NCCN1)c1ccco1` (centres undefined) | 15.35 | - |
| 29 | `O=C1CCN(C(=O)CCCSc2ccccc2)CCN1` | - | 12.94 |
| 30 | `CCN(C(=O)c1cc(F)ccc1OC)[C@H]1COC[C@@H]1O` | 21.72 | - |
| 31 | `CNC(=O)CSc1ncc(Br)cn1` | - | -14.12 |
| 32 | `O=C(C1CCNCC1)N1CCc2ccccc2C1` | 13.45 | - |
| 33 | `Cc1ccc2nc(CN3CCOCS3(=O)=O)cn2c1` | 12.19 | - |
| 34 | `O=C1c2ccccc2OCC1CN1CCOCC1` (centres undefined) | 104.2 | 113.3 |
| 35 | `Cc1cc(CN(C)c2ncccc2F)no1` | 4.786 | - |
| 36 | `CCN(CC)S(=O)(=O)c1cccc(NCC(=O)OC)c1` | 18.33 | -2.883 |
| 37 | `Cn1ccc(CNC(=O)NCC2CC2)c1` | - | 34.58 |
| 38 | `CCc1ncc(C(=O)NCCNc2ncccn2)s1` | 20.84 | - |
| 39 | `CCN(CC(C)C#N)S(=O)(=O)c1ncn(C)c1Cl` (centres undefined) | 2.144 | - |
| 40 | `CC(=O)c1ccc(C(=O)NCCN2CCCOC2=O)s1` | -19.32 | - |
| 41 | `Cn1cc(C(N)=O)nn1` | - | 2.058 |
| 42 | `O=S(=O)(c1cc2ccccc2o1)N1CCOCC1` | 47.15 | - |
| 43 | `COc1ccc(Cl)cc1C(=O)N1C[C@H](O)[C@@H](N(C)C)C1` | -6.273 | - |
| 44 | `CS(=O)(=O)CC1(CNCc2ccncc2)CC1` | 17.65 | - |
| 45 | `CC(C)n1ccnc1CN(C)CC(C)(C)S(C)(=O)=O` | 5.938 | - |
| 46 | `Cc1cc(C(=O)N2CCC(O)(CN(C)C)C2)cc(C)n1` (centres undefined) | 8.62 | - |
| 47 | `Cc1ccc(CN2CCC(CNS(N)(=O)=O)CC2)cc1` | 8.899 | - |
| 48 | `COc1ccc(S(=O)(=O)N2CCC(N)CC2)cc1OC` | 23.36 | - |
| 49 | `COc1ccc(Cl)c(CSCC(O)CO)c1` (centres undefined) | 44.37 | - |
| 50 | `O=C(O)c1cccnc1N1CCC2(CCCNC2)C1` (centres undefined) | -13.77 | - |
| 51 | `COc1ccc(CN2CCCC3(CCOCC3)C2)cn1` | 18.68 | - |
| 52 | `C[C@H](CO)N(C)C(=O)Cc1cccc(OC(F)(F)F)c1` | 6.64 | - |
| 53 | `O=C(c1ccc(Br)c(O)c1)N1CCCC1CCCO` (centres undefined) | 16.57 | - |
| 54 | `O=C(NCC1CCOCC1)NC1CCCC1` | 6.378 | - |
| 55 | `NCc1cccc(OCc2ccccn2)c1` | 52.85 | - |
| 56 | `CN(CCc1ccncc1)C(=O)CCNS(C)(=O)=O` | - | -5.974 |
| 57 | `CN(C)C(=O)c1cccc(S(C)(=O)=O)c1` | 16.14 | - |
| 58 | `CSc1nnc(CN)n1C` | -4.686 | - |
| 59 | `CCc1cc(C)c(C(=O)NC2CNC[C@@H]2OC)o1` (some centres undefined) | 16.65 | - |
| 60 | `CC(=O)N1CCC2(CCNC2)C1` (centres undefined) | 5.995 | - |
| 61 | `CC(=O)N1CCN(c2ccc3nnnn3n2)CC1` | -2.24 | - |
| 62 | `CC(=O)c1cccc(C(=O)NC(C)c2nc(C)c[nH]2)c1` (centres undefined) | 9.206 | - |
| 63 | `CCC1CCC(=O)N1` (centres undefined) | -3.817 | - |

6 of the entries, repeated:

With Cc1cc(CN(C)c2ncccc2F)no1 the screen gave Mtb glucose medium: 4.786%.
With CCSc1cncc(N2CCC(O)CC2)n1 the screen gave Mtb glucose medium: 34.7%.
With Cn1ccc(CNC(=O)NCC2CC2)c1 the screen gave Mtb cholesterol medium: 34.58%.
With NC(=O)COCCNC(=O)CC1CCCCC1 the screen gave Mtb glucose medium: -2.442%.
With CC(=O)c1cccc(C(=O)NC(C)c2nc(C)c[nH]2)c1 (centres undefined) the screen gave Mtb glucose medium: 9.206%.
With CCN(CC)C(CNC1=NCCN1)c1ccco1 (centres undefined) the screen gave Mtb glucose medium: 15.35%.